Anti-infective test results gathered from many reports (values: NIAID ChemDB through PubChem).

Common to all: tests in culture; organism: HIV-1; cells: H9; endpoint: EC50

Blank or dashed fields: not listed here. ECn: concentration that inhibits the pathogen or its effect by n%. Conditions beyond the fields shown may differ between rows. Two numbers with a dash give a range or band.

structure | strain or isolate | read by | setting | value
Cc1cn([C@H]2C[C@H](N=[N+]=[N-])[C@@H](CO)O2)c(=O)[nH]c1=O | IIIB | p24 / ELISA |  | 0.045 µM
COc1ccc2[nH]c(C(=O)N3CCN(c4ncccc4NC(C)C)CC3)cc2c1 | IIIB | p24 |  | 0.06 µM
CCOC(=O)c1cc(C(=O)NCc2cccnc2)n2ccc(C(=O)c3ccco3)cc12 | NL4-3 | ELISA |  | 55.2 µM
O=c1oc(C(CC2CC2)CC2CC2)cc(O)c1C(c1cccc(NS(=O)(=O)c2ccccn2)c1)C1CC1 | IIIB | p24 |  | 1–3 µM
CC1(C)Oc2ccc3ccc(=O)oc3c2[C@H](OC(=O)C23CCC(C)(C(=O)O2)C3(C)C)[C@H]1OC(=O)C12CCC(C)(C(=O)O1)C2(C)C | IIIB | p24 / ELISA |  | >6.4 µM
CC(=O)OC[C@@H]1CC23CCC4[C@@](C)(CCC[C@@]4(C)C(=O)O)C2CC[C@H]1C3 | IIIB | p24 |  | >100 µg/mL
CCCCCCCCCCCCCCCCCCOC[C@H](CO[C@]1(C(=O)O)C[C@H](OS(=O)(=O)O)[C@@H](NC(C)=O)[C@H]([C@H](OS(=O)(=O)O)[C@@H](COS(=O)(=O)O)OS(=O)(=O)O)O1)OCCCCCCCCCCCCCCCCCC | IIIB | p24 |  | 2.5 µM
COc1ccc(-c2c(C)sc3c(N4CC[C@@H](NC(C)=O)C4)ncnc23)cc1OC |  | p24 |  | >100 µM
C=C(C)[C@@H]1CC[C@]2(COC(=O)CC(C)(C)C(=O)O)CC[C@@H]3[C@H](CC[C@H]4[C@H]3CC[C@H]3C(C)(C)[C@@H](OC(=O)C(C)(C)CC(=O)O)CC[C@]43C)[C@@H]12 |  |  |  | 0.4 µM
C[C@H]1[C@H](C)CC[C@]2(C(=O)O)CC[C@]3(C)C(=CC[C@@H]4[C@@]5(C)CC[C@H](OC(=O)C(C)(C)CC(=O)O)C(C)(C)[C@@H]5CC[C@]43C)[C@H]12 | IIIB | p24 / ELISA |  | >30.7 µM
CCOC(=O)c1cc(C(=O)c2ccccc2)n2ccc(C(=O)NCc3ccc4ccccc4c3)cc12 | NL4-3 | ELISA |  | 20.1 µM
COc1ccc(-c2c(C)nc3c(N4CC[C@@H](NC(=O)C(F)(F)c5ccccc5)C4)cc(C)nn23)cc1OC |  | p24 |  | 0.1 µM
COc1cc(C=O)c(-c2c(C=O)cc(OC)c(OC)c2OC)c(OC)c1OC | IIIB | p24 |  | 5 µM
CCc1cn([C@@H]2C[C@H](F)[C@@H](CO)O2)c(=O)[nH]c1=O | IIIB | antigen |  | 0.1 µM
CC1(C)Oc2ccc3ccc(=O)oc3c2[C@H](OC(=O)C23CCC(C)(C(=O)O2)C3(C)C)[C@@H]1OC(=O)C12CCC(C)(C(=O)O1)C2(C)C | IIIB | p24 / ELISA |  | 51 µM
COc1ccc(-c2csc3c(N4CC[C@@H](NC(C)=O)C4)ncnc23)cc1OC |  | p24 |  | >100 µM
CC12CCC[C@@]3(COC1=O)C1CC[C@@H]4C[C@@]1(CC[C@H]23)C[C@@]4(C)O | IIIB | p24 |  | 3.1 µM
COc1c2c(cc3c1-c1c(cc4c(c1OC)OCO4)C(OC(=O)c1ccccc1)[C@@](C)(O)[C@@H](C)C3)OCO2 | IIIB | p24 |  | 0.5 µg/mL
NC(=O)n1c(O)c(C(=O)c2cccs2)c2cc(Cl)ccc21 | MN | p24 |  | 15 µM
Nc1nccc2c1ncn2[C@@H]1C=C(CO)[C@@H](O)[C@H]1O | MN | p24 |  | 0.001 µM
COc1ccc(-c2c(C)nc3c(N4CC[C@@H](NC(=O)OC5CCCCC5)C4)cc(C)nn23)cc1OC |  | p24 |  | 0.3 µM
C[C@H]1[C@H](C)CC[C@]2(C(=O)O)CC[C@]3(C)C(=CC[C@@H]4[C@@]5(C)CC[C@H](OC(=O)CCC(=O)O)C(C)(C)[C@@H]5CC[C@]43C)[C@H]12 | IIIB | p24 / ELISA |  | 15.3 µM
O=c1[nH]c(=S)ccn1[C@@H]1O[C@H](COP(=O)(O)O)[C@@H](O)[C@H]1O | IIIB | syncytia / visual reading |  | 7.5 µM
NCCCC(NC(=O)CCCCCCCCN=C(N)N)C(O)CCCCCCCCN=C(N)N | IIIB | RT activity |  | ~25 µg/mL
COc1c(Br)c2c(c(OC)c1OC)-c1c(c(Br)c(OC)c(OC)c1OC)C[C@](C)(O)[C@@H](C)C2 | IIIB | p24 |  | >25 µg/mL
Nc1ccn([C@H]2CS[C@@H](CO)O2)c(=O)n1 |  | p24 |  | 0.6 µM
CCOC(=O)c1cc(C(=O)NCc2ccccn2)n2ccc(C(=O)c3ccco3)cc12 | NL4-3 | ELISA |  | 42.1 µM
COc1ccc(-c2c(C)sc3c(N4CC[C@@H](NC(C)=O)C4)nc(Cl)nc23)cc1OC |  | p24 |  | >100 µM
C=C(C)[C@@H]1CC[C@]2(COC(=O)CC(C)(C)C(=O)O)CC[C@@H]3[C@H](CC[C@H]4[C@H]3CC[C@H]3C(C)(C)[C@@H](OC(=O)CC(C)(C)C(=O)O)CC[C@]43C)[C@@H]12 |  |  |  | 0.02 µM
Cc1cn([C@H]2C[C@H](N=[N+]=[N-])[C@@H](CO)O2)c(=O)[nH]c1=O | IIIB | fluorescence |  | 0.01903 µM
COc1c2c(cc3c1-c1c(cc4c(c1OC)OCO4)C(OC(=O)c1ccccc1)[C@H](C)[C@@H](C)C3)OCO2 | IIIB | p24 |  | 3 µg/mL
CCN(CC)CCNc1ccnc(NCCCNC(=O)c2cccc(C(=O)NCCCNc3nccc(NCCN(CC)CC)n3)c2)n1 | MN | ELISA | 6 d | 0.05–0.15 µM
Cc1cn([C@H]2CC[C@@H](CO)C2)c(=O)[nH]c1=O | IIIB | antigen |  | 10 µM
CCc1cn([C@@H]2C[C@H](F)[C@@H](CO)O2)c(=O)[nH]c1=O | IIIB | p24 |  | 0.1 µM
CCOC(=O)c1cc(C(=O)c2ccccc2)n2ccc(C(=O)N[C@@H](C(=O)OC)c3ccccc3)cc12 | NL4-3 | ELISA |  | 49.5 µM
O=c1ccn(C2C[C@H](CO)[C@@H](CO)C2)c(=O)[nH]1 | IIIB | RT activity |  | >10 µg/mL
COc1ccc(-c2c(C)nc3c(N4CC[C@@H](NC(C)=O)C4)cc(Cl)nn23)cc1 |  | p24 |  | >100 µM
CC(CCC(=O)N[C@@H](Cc1ccc(O)cc1)C(=O)O)C1CCC2C3CCC4C[C@H](O)CCC4(C)C3C[C@H](O)C12C | IIIB | syncytia |  | <0.01 µg/mL
CCN(CC)CCCC(C)Nc1ccnc2cc(Cl)ccc12 |  | RT activity |  | <100 µM
CC1/C=C/C=C/C=C/C=C/C=C/C=C/C=C/C(OC2OC(C)C(O)C(N)C2O)CC(O)C(C(=O)O)C(O)CC(=O)CC(O)CC(O)CC(O)CC(=O)CCCC(=O)CC(=O)OC1 | IIIB | p24 / antigen |  | >0.01 µg/mL
CCN(CC)CCNc1nc(NCCCNC(=O)c2cccc(C(=O)NCCCNc3nc4c(c(NCCN(CC)CC)n3)CC=CC4)c2)nc2c1CC=CC2 | MN | ELISA | 6 d | 0.05–0.15 µM
CC(C)Nc1cccnc1N1CCN(C(=O)c2cc3ccccc3[nH]2)CC1 | IIIB | p24 |  | 0.04 µM
CCOC(=O)c1cc(C(=O)c2cccc(N)c2)n2ccc(C(=O)NCc3ccccn3)cc12 | NL4-3 | ELISA |  | 22.3 µM
COc1cc(CBr)c(-c2c(CBr)cc(OC)c(OC)c2OC)c(OC)c1OC | IIIB | p24 |  | 90 µM
C/C=C(/C)C(=O)OC1c2cc3c(c4c2[C@](C(=O)C(=O)OC)(CO4)/C(=C\C(=O)OC)C[C@@H](C)[C@H]1C)OCO3 | IIIB | p24 |  | 35 µg/mL
C[C@H]1[C@H](C)CC[C@]2(C(=O)O)CC[C@]3(C)C(=CC[C@@H]4[C@@]5(C)CC[C@H](OC(=O)CC(C)(C)C(=O)O)C(C)(C)[C@@H]5CC[C@]43C)[C@H]12 | IIIB | p24 / ELISA |  | 2.1 µM
C[C@@]12CCC[C@@](C)(C(=O)O)[C@H]1CC[C@@]13C[C@@H](CC[C@H]12)[C@@](O)(CO)C3 | IIIB | p24 |  | >100 µg/mL
CCCCCCCCCCCCCCCCCCCCCC(=O)OC[C@H](CO[C@]1(C(=O)O)C[C@H](OS(=O)(=O)O)[C@@H](OS(=O)(=O)O)[C@H]([C@H](OS(=O)(=O)O)[C@@H](COS(=O)(=O)O)OS(=O)(=O)O)O1)OC(=O)CCCCCCCCCCCCCCCCCCCCC | IIIB | p24 |  | 4 µM
CN(C)CCONc1c2cc(Cl)ccc2nc(=S)c2ccccc12 | LAV | syncytia |  | 1.5 µM
Cc1cn(C2C[C@H](CO)[C@@H](CO)C2)c(=O)[nH]c1=O | IIIB | RT activity |  | >10 µg/mL
CC(C)CCNc1ccnc(NCCCNC(=O)c2ccc(C(=O)NCCCNc3nccc(NCCC(C)C)n3)cc2)n1 | IIIB | syncytia / ELISA |  | >6.3 µM
CC1(C)CC[C@]2(C(=O)O)CC[C@]3(C)C(=CC[C@@H]4[C@@]5(C)CC[C@H](OC(=O)CC(C)(C)C(=O)O)C(C)(C)[C@@H]5CC[C@]43C)[C@@H]2C1 | IIIB | p24 / ELISA |  | 0.00086 µM
C[C@@]12CCC[C@@](C)(C(=O)O)C1CC[C@@]13C[C@@H](CCC12)[C@@H](CO)C3 | IIIB | p24 |  | >100 µg/mL
COc1c2c(c(Br)c3c1-c1c(c(Br)c4c(c1OC)OCO4)C[C@H](C)[C@H](C)C3)OCO2 | IIIB | p24 |  | >100 µg/mL
CCN(CC)CCNc1ccnc(NCCCCCCNC(=O)c2ccc(C(=O)NCCCCCCNc3nccc(NCCN(CC)CC)n3)cc2)n1 | IIIB | syncytia / ELISA |  | 1.1 µM
COC(=O)c1cc(-c2cc(C(=O)OC)c3c(c2OC)OCO3)c(OC)c2c1OCO2 | IIIB | p24 |  | >1.8 µg/mL
CCN(CC)CCNc1nc(NCCCNC(=O)c2ccc(C(=O)NCCCNc3nc4c(c(NCCN(CC)CC)n3)CC=CC4)cc2)nc2c1CC=CC2 | IIIB | syncytia / ELISA |  | 0.125 µM
C[C@@]12CCC[C@@](C)(C=O)C1CCC13C[C@@H](CO)[C@@H](CCC12)C3 | IIIB | p24 |  | >100 µg/mL